Data as given in PubChem BioAssay AID1224833 (University of Georgia, 2016).
Here is a random part of about 12,000 reagents. Of all reagents, about 5,600 (46%) are marked active. 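Active calls cover z-scores past 1 in both directions, so they include lowered as well as raised rotavirus replication.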

Test: 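Host factors restraining rotavirus as candidate antiviral genes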 (primary screen)
Cells: monkey MA104 kidney cells
Knock-down reagent: siRNA pool against human genes, 50 nM
Duration: 48 h knock-down before infection; read 24 h after infection
Conditions: infection with rotavirus strain RV3 two days after transfection; infectious dose for this stage not given
Detection: 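z-score of rotavirus antigen signal per well, from a fluorescent immunoassay, relative to non-targeting control wells on the same plate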
Scale: z-score vs non-targeting control: higher = more rotavirus replication than with non-targeting control
Call rule: In these data the active calls have z-score vs non-targeting control at about -1 or lower, or at about 1 or higher
Meaning of the calls: active = z-score beyond 1 either way; inactive = z-score within 1 of zero

For MUC13 (GeneID 56667), what does the deposit list?
z-score vs non-targeting control: 0.439; call: inactive

What is on record for C5orf46 (GeneID 389336)?
z-score vs non-targeting control: 0.708; call: inactive

What is on record for TPST1 (GeneID 8460)?
z-score vs non-targeting control: -1.14; call: active

Which result is listed for CCDC122 (GeneID 160857)?
z-score vs non-targeting control: 1.41; call: active

What is on record for EEF1E1 (GeneID 9521)?
z-score vs non-targeting control: 0.637; call: inactive

For OR2F1 (GeneID 26211), how do the results read?
z-score vs non-targeting control: -0.842; call: inactive

With PSENEN (GeneID 55851), how do the results read?
z-score vs non-targeting control: 0.974; call: inactive

How did the screen score AFG1L (GeneID 246269)?
z-score vs non-targeting control: -0.555; call: inactive

What did the screen give for MLLT3 (GeneID 4300)?
z-score vs non-targeting control: 0.0791; call: inactive

What is on record for MAN1B1 (GeneID 11253)?
z-score vs non-targeting control: -0.663; call: inactive

With SERPINA11 (GeneID 256394), what was measured?
z-score vs non-targeting control: -1.04; call: active

Which result is listed for HEPACAM (GeneID 220296)?
z-score vs non-targeting control: 1.91; call: active

With CD1D (GeneID 912), what does the deposit list?
z-score vs non-targeting control: 0.822; call: inactive

What did the screen give for TSEN34 (GeneID 79042)?
z-score vs non-targeting control: -2.75; call: active

What did the screen give for ACHE (GeneID 43)?
z-score vs non-targeting control: 1.46; call: active

What did the screen give for CEP63 (GeneID 80254)?
z-score vs non-targeting control: -2.43; call: active

With HES5 (GeneID 388585), what was measured?
z-score vs non-targeting control: -1.7; call: active

How did the screen score KIR3DL3 (GeneID 115653)?
z-score vs non-targeting control: -1.21; call: active

Which result is listed for ETV3 (GeneID 2117)?
z-score vs non-targeting control: 0.826; call: inactive

For PCDHB8 (GeneID 56128), what does the deposit list?
z-score vs non-targeting control: -0.833; call: inactive

For TRDN (GeneID 10345), how do the results read?
z-score vs non-targeting control: -3.18; call: active

With RHOF (GeneID 54509), how do the results read?
z-score vs non-targeting control: -0.619; call: inactive

For SCO1 (GeneID 6341), what does the deposit list?
z-score vs non-targeting control: 2.19; call: active

For ZNF81 (GeneID 347344), what does the deposit list?
z-score vs non-targeting control: -0.73; call: inactive

With GDNF (GeneID 2668), what does the deposit list?
z-score vs non-targeting control: -1.32; call: active

With NXNL2 (GeneID 158046), what was measured?
z-score vs non-targeting control: -0.125; call: inactive

With DNAJC1 (GeneID 64215), what does the deposit list?
z-score vs non-targeting control: 1.63; call: active

What did the screen give for DFFB (GeneID 1677)?
z-score vs non-targeting control: -1.11; call: active

How did the screen score PLEKHG1 (GeneID 57480)?
z-score vs non-targeting control: 0.84; call: inactive

With TAF7L (GeneID 54457), what does the deposit list?
z-score vs non-targeting control: 0.615; call: inactive

With PRPSAP2 (GeneID 5636), what was measured?
z-score vs non-targeting control: -0.381; call: inactive

What is on record for ARMCX5 (GeneID 64860)?
z-score vs non-targeting control: -1.81; call: active

How did the screen score ZNF34 (GeneID 80778)?
z-score vs non-targeting control: 1.89; call: active

How did the screen score RBFOX1 (GeneID 54715)?
z-score vs non-targeting control: 1.17; call: active

What did the screen give for KRT33B (GeneID 3884)?
z-score vs non-targeting control: -2.36; call: active

For CDK6 (GeneID 1021), what does the deposit list?
z-score vs non-targeting control: 3.97; call: active

With TIPRL (GeneID 261726), what was measured?
z-score vs non-targeting control: -0.86; call: inactive

What did the screen give for ELP2 (GeneID 55250)?
z-score vs non-targeting control: -0.905; call: inactive

For ALCAM (GeneID 214), how do the results read?
z-score vs non-targeting control: -1.64; call: active

With XKR4 (GeneID 114786), what was measured?
z-score vs non-targeting control: 1.84; call: active

For VTN (GeneID 7448), how do the results read?
z-score vs non-targeting control: 0.744; call: inactive

With XTBD1 (GeneID 91368), how do the results read?
z-score vs non-targeting control: -0.984; call: inactive

For GAP43 (GeneID 2596), how do the results read?
z-score vs non-targeting control: -1.08; call: active

What did the screen give for ZNF552 (GeneID 79818)?
z-score vs non-targeting control: -0.799; call: inactive

For C2orf66 (GeneID 401027), what was measured?
z-score vs non-targeting control: 0.732; call: inactive

With LARP7 (GeneID 51574), how do the results read?
z-score vs non-targeting control: -0.66; call: inactive

With PCDHB14 (GeneID 56122), what was measured?
z-score vs non-targeting control: -1.18; call: active
